Pooled drug test results. Numbers come from NIAID ChemDB, via PubChem.

All rows: growth or infection tests; agent: HIV-1; cell line: CEM; read by: syncytia; endpoint: fold resistance

Fold resistance: result on the changed form divided by that on wild type. Blank or dashed fields: not listed here. Conditions beyond the fields shown may differ between rows.

structure | strain or isolate | changes | result
CC(C)c1c(Sc2ccccc2)n(COCc2ccccc2)c(=S)[nH]c1=O | IIIB | Nevirapine resistant (RT Y181C) | 50
C=C(Cl)COc1cc(NC(=S)c2ccsc2C)ccc1C#N | TIBO R82150-resistant (RT L100I) | RT-L100I | 6.67
CC(C)c1c(Sc2ccccc2)n(COCc2ccccc2)c(=O)[nH]c1=O | IIIB | Nevirapine resistant (RT Y181C) | 83.3
COCCOC(=O)c1cc(NC(=O)C2=C(C)OCCS2)ccc1Cl | Nevirapine-resistant (RT V106A) | RT-V106A | >16.7
CO/N=C(\C)COc1cc(NC(=S)OC(C)C)ccc1Cl | - | RT-V106A | 28.5
Cc1sccc1C(=S)Nc1ccc(Cl)c(OCC=C(Cl)Cl)c1 | Nevirapine-resistant isolate (RT V106A) | RT-V106A | 9.29
CC(C)OC(=S)Nc1ccc(Cl)c(C(=O)OCC[Si](C)(C)C)c1 | - | RT-L100I | 12.5
C/C(Cl)=C/COc1cc(NC(=S)c2ccoc2C)ccc1Cl | TSAO-m3T-resistant (RT E138K) | RT-E138K | 2.67
CCc1c(Sc2cc(C)cc(C)c2)n(COCCO)c(=O)[nH]c1=O | IIIB TIBO R82913-resistant (RT K103N) | RT-K103N | 117
C#CCOc1cc(NC(=S)OC(C)C)ccc1Cl | - | RT-E138K | 8.75
Cc1occc1C(=S)Nc1ccc(Cl)c(SCC=C(Cl)Cl)c1 | HEPT-resistant (RT Y188H) | RT-Y188H | 400
CCC(C)OC(=O)c1cc(NC(=S)OC(C)C)ccc1Cl | - | RT-V106A | 49.7
COc1ccc(NC(=S)C2=C(C)OCCS2)cc1OCC=C(Cl)Cl | Pyridone-resistant (RT Y181C) | RT-Y181C | 7.41
CCCCOC(=O)c1cc(NC(=O)C2=C(C)OCCS2)ccc1Cl | TSAO-resistant (RT E138K) | RT-E138K | 87.5
COc1ccc(NC(=O)c2ccoc2C)cc1OCC=C(Cl)Cl | TIBO R82913-resistant (RT K103N) | RT-K103N | 40
CCCCC(CC)COC(=O)c1cc(NC(=S)OC(C)C)ccc1Cl | - | RT-E138K | 93.7
Cc1occc1C(=S)Nc1ccc(Cl)c(OCC=C(Cl)Cl)c1 | Nevirapine-resistant isolate (RT V106A) | RT-V106A | 6.47
CC1=C(C(=O)Nc2ccc(Cl)c(C(=O)OC3CCCCC3C)c2)SCCO1 | TIBO-resistant (RT L100I) | RT-L100I | 35
CCOCn1c(Sc2ccccc2)c(C(C)C)c(=O)[nH]c1=S | IIIB TIBO R82913-resistant (RT K103N) | RT-K103N | 111
CC1=C(C(=O)Nc2ccc(Cl)c(OCC=C(Cl)Cl)c2)SCCO1 | TIBO R82150-resistant (RT L100I) | RT-L100I | 1.67
C=CCOc1cc(NC(=S)OC(C)C)ccc1C#N | - | RT-E138K | 12
CCCC1=C(C(=O)Nc2ccc(Cl)c(C(=O)OCC)c2)SCCO1 | PYR-resistant (RT Y181C) | RT-Y181C | >66.7
C/C=C/COc1cc(NC(=S)OC(C)C)ccc1Cl | - | RT-E138K | 2.5
COc1ccc(NC(=S)c2ccsc2C)cc1OCC=C(Cl)Cl | TSAO-m3T-resistant (RT E138K) | RT-E138K | 26
CSCCOC(=S)Nc1ccc(Cl)c(C(=O)OC(C)C)c1 | - | RT-L100I | 11.1
CCOCn1c(Cc2ccccc2)c(CC)c(=O)[nH]c1=O | IIIB | RT-E138K | 5.625
Cc1occc1C(=S)Nc1ccc(Cl)c(/C=N/OC(C)(C)C)c1 | IIIB | RT-Y188H | 5
CC(C)OC(=O)c1cc(NC(=S)OC(C)(C)C)ccc1Cl | - | RT-V106A | 1.42
CC1=C(C(=O)Nc2ccc(Cl)c(C(=O)OC(C)C)c2)SCCO1 | IIIB | RT-Y188L | 357.1
CC(C)OC(=O)Nc1ccc(Cl)c(C(=O)OC(C)C)c1 | - | RT-L100I | 1.36
CC(C)=CCOc1cc(NC(=S)c2ccoc2C)ccc1Cl | IIIB | RT-Y188H | 5
Cc1occc1C(=S)Nc1ccc(Cl)c(/C=N/OC(C)(C)C)c1 | IIIB | RT-Y188H | 4.5
CC(C)OC(=S)Nc1ccc(Cl)c(C(=O)OC2CC2)c1 | - | RT-E138K | 16.3

The last 3 rows once more:

structure | strain or isolate | changes | result
CC(C)=CCOc1cc(NC(=S)c2ccoc2C)ccc1Cl | IIIB | RT-Y188H | 5
Cc1occc1C(=S)Nc1ccc(Cl)c(/C=N/OC(C)(C)C)c1 | IIIB | RT-Y188H | 4.5
CC(C)OC(=S)Nc1ccc(Cl)c(C(=O)OC2CC2)c1 | - | RT-E138K | 16.3